According to article PMC8277577 (Nature, 2021):

Molecular target: SARS-CoV-2 receptor binding domain (RBD) (SARS-CoV-2, GenBank MN985325.1 …, UniProt P0DTC2)
Assay: BLI
Conditions: both partners purified

Binder	Kd
C129 (antibody, V domains shown, source: recombinant, purified) VH: QVQLVESGGGVVQPGRSLRLSCAASGFTFSSYGMNWVRQAPGKGLEWVAVISYDGSNTYYTDSVKGRFTISRDNSKNTLYLQMNSLRVDDTATYYCAKGPRFGWSYRGGSGFDIWGQGTMVTVSS VL: DIQMTQSPSSLSASVGDRVTITCQASQDISNYLNWYQQKPGKAPKLLIYDASNLETGVPSRFSGSESGTDFTFTISSLQPEDIATYYCQQYDNLPITFGQGTRLEIK	53.6 nM
C038 (antibody, V domains shown, source: recombinant, purified) VH: VQLVESGGGVVQPGRSLRLSCAASGFTFNRIAMYWVRQAPGKGLEWVAVISFDGSYEYYAESVKGRFAISRDNSKNTLYLQMNSLRAEDTAVYYCAKSPMGYCTNGVCYPDSWGQGTLVTVSS VL: NFMLTQPHSVSESPGKTVTISCTGSSGSIASNYVQWYQQRPGSAPTTVIYEDTQRPSGVPDRFSGSIDSSSNSASLTISGLKTEDEADYYCQSYDINSRWVFGGGTKLTVL	46.7 nM
